# In patent US6759409B2, “Inhibitors of papilloma virus” (Boehringer Ingelheim (Canada) Ltd., priority 2000, dated 2004):
# Sequences of proteins named here, by UniProt entry; tags and fusion partners are left off.
# UniProt P04015, whole entry: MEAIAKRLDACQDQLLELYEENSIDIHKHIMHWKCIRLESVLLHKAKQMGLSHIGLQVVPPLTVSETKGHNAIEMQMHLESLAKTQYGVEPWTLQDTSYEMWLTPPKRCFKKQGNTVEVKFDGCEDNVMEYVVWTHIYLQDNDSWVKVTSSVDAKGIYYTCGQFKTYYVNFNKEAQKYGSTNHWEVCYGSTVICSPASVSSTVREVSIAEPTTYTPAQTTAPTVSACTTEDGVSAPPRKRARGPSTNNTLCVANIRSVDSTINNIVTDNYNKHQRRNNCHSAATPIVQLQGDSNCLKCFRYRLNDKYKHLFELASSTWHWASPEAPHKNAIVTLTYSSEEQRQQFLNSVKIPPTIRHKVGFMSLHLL
# Target: HPV-11 E1-E2-DNA origin of replication complex (Human papillomavirus 11, UniProt P04015)
# Assay: E2-dependent E1 DNA binding assay (E1-E2 DNA assay)
# Conditions: tested form: Na salt
# Method: This particular assay determines the ability of a test compound to inhibit the activity (IC50) of HPV-11 DNA replication. More specifically, in the assay described herein, the inhibitory activity of the test compound is evaluated based on its ability to interfere with the E1-E2-DNA origin of replication interaction, thereby inhibiting initiation of viral DNA replication.
# This assay was modeled on a similar assay for SV40 T Antigen described by McKay (J. Mol. Biol., 1981,145:471). A 400 bp radiolabeled DNA probe, containing the HPV-11 origin of replication (Chiang et al., 1992, Proc. Natl. Acad. Sci. USA 89:5799) was produced by pcr, using plasmid pBluescript™ SK encoding the origin (nucleotides 7886-61 of the HPV-11 genome in unique BAMH1 site) as template and primers flanking the origin. Radiolabel was incorporated as [^33P]dCTP. Binding assay buffer consisted of: 20 mM Tris pH 7.6, 100 mM NaCl, 1 mM DTT, 1 mM EDTA.
# Other reagents used were protein A-SPA beads (type II, Amersham) and K72 rabbit polyclonal antiserum, raised against a peptide corresponding to the C-terminal 14 amino acids of HPV-11 E1. […] After an additional hour of incubation at room temperature, the reactions were centrifuged briefly to pellet the beads and the extent of complex formation was determined by scintillation counting on a Packard TopCount™. […]
structure (smiles),measurement,setting,value
O=C(Nc1ccc2c(c1)OCO2)C1C(c2ccc(Cl)c(Cl)c2)OC2(C(=O)c3ccccc3C2O)C1C(=O)O (centres unmarked),IC50,"Table 8, racemic cis/cis isomer (form 2)",0.5 to 5 µM
CC(=O)c1ccc(NC(=O)C2C(c3ccc(Cl)c(Cl)c3)OC3(C(=O)c4ccc(Br)cc4C3=O)C2C(=O)O)cc1 (centres unmarked),IC50,"Table 1, racemic cis/cis isomer (form 1)",5 to 50 µM
